In US20130065259:

Legend:
[1] = target: T1, BoNT/A cleavable peptide #116: [4-Mu]TRIDEANQRATK[DABCYL]-Nle
T1 chain: TRIDEANQRATKX

[2] = target: T2, BoNT/A cleavable peptide #115: [5-Fam]TRIDEANQRATK[DABCYL]-Nle
T2 chain: TRIDEANQRATKX

[3] = target: T3, Control peptide #112: [5-Fam]TRIDEANQRATK[DABCYL]-Hex
T3 chain: TRIDEANQRATKX

[4] = target: T4, Control peptide #113: [4-Mu]TRIDEANQRATK[DABCYL]-Hex
T4 chain: TRIDEANQRATKX

B1: Trypsin (protein)
chain: IVGGYTCAANSIPYQVSLNSGSHFCGGSLINSQWVVSAAHCYKSRIQVRLGEHNIDVLEGNEQFINAAKIITHPNFNGNTLDNDIMLIKLSSPATLNSRVATVSLPRSCAAAGTECLISGWGNTKSSGSSYPSLLQCLKAPVLSDSSCKSSYPGQITGNMICVGFLEGGKDSCQGDSGGPVVCNGQLQGIVSWGYGCAQKNKPGVYTKVCNYVNWIQQTIAAN
Protein B1 has a KM [1] of 3.4 µM, a KM [2] of 9.67 µM and a KM [3] of 3.75 µM. For the same protein, the KM [4] was 13.3 µM.
